Values joined by “and” are separate entries in the source; they are usually repeats but may differ in a detail not shown here. Equal values may be shown once.
What was measured:
[1] = Odor intensity of fragrance blend sprayed on paper stripes, untrained panelists (Example B.2); conditions: 1=weak odor, 5=strong odor, 2.0% alkanediol in total with 1% FRA-Blend in ethanol/water
[2] = Boosting/masking effect on fragrance blend, paper stripes dunked, untrained panelists (Example B.4); conditions: 1=weak odour; 5=strong odour; 2.0% alkanediol in total with 1% FRA-Blend
[3] = Malodour coverage of sweat malodour on filter paper, trained panel (Example B.1); conditions: scale 0 to 10 (0: odorless; 10: strongest imaginable)

| SMILES | odor intensity, mean value, after 10 minutes [1] | odor intensity, mean value, after 25 minutes [1] | odor intensity, single panelist, after 25 minutes ([1]; listed as 1,2-C8) | odor intensity, single panelist, after 10 minutes ([1]; listed as 2,3-C8) | odor intensity, single panelist, after 25 minutes ([1]; listed as 2,3-C8) | odour (fragrance) intensity, mean value, after 10 min [2] | odour (fragrance) intensity, mean value, after 30 min [2] | odor intensity, single panelist, after 10 minutes ([1]; listed as 2,3-C7) | odor intensity, single panelist, after 25 minutes ([1]; listed as 2,3-C7) | odor intensity, single panelist, after 10 minutes ([1]; listed as 1,2-C7) | odor intensity, single panelist, after 25 minutes ([1]; listed as 1,2-C7) | malodour value, 6 h [3] | malodour value, Fresh [3] |
| --- | --- | --- | --- | --- | --- | --- | --- | --- | --- | --- | --- | --- | --- |
| CCCCCCC(O)CO (stereo not drawn) [1,2-octanediol] | 3.4 | 2.6 | 2 and 3 |  |  |  |  |  |  |  |  |  |  |
| CCCCCC(O)C(C)O (stereo not drawn) [2,3-octanediol] | 3.4 | 2.8 |  | 3 and 4 | 3 and 2 | 3.3 | 3.1 |  |  |  |  |  |  |
| CCCCC(O)C(C)O (stereo not drawn) [2,3-heptanediol] | 3.0 | 2.4 |  |  |  |  |  | 4 and 3 and 2 | 4 and 2 |  |  |  |  |
| CCCCCC(O)CO (stereo not drawn) [1,2-heptanediol] | 2.4 | 2.4 |  |  |  | 2.4 | 2.4 |  |  | 3 and 2 | 2 and 3 | 4.8 | 5.6 and 5.7 |

Source: patent US20230248626A1, “Compositions Comprising (Bio)-Alkanediols” (Symrise AG, priority 0001, published 2023)
